Results of unrelated studies side by side (data: NIAID ChemDB).

Shared fields: cytotoxicity tests; cells: PBMC; measure: CC50

a–b is a range or a potency band.

{"compound": "Cc1cc(C)cc(Cn2c(=O)ccn(Cc3c(F)cccc3F)c2=O)c1", "value": "326 µM"}
{"compound": "CCc1cn([C@H]2CC[C@@H](CO)O2)c(=O)[nH]c1=O", "value": ">100 µM"}
{"compound": "c1cc(CN2CCCNCCNCCCNCC2)ccc1CN1CCCNCCNCCCNCC1", "value": ">10 µM"}
{"compound": "COC(=O)c1ccc([C@H]2OOC3(CCC[C@@H](C)C3)[C@@H](OC)O2)cc1", "value": ">100 µM"}
{"compound": "Nc1ncnc2c1ncn2[C@H]1CC[C@@H](CO)O1", "value": ">100 µM"}
{"compound": "Cc1cn([C@H]2C[C@H](N=[N+]=[N-])[C@@H](CO)O2)c(=O)[nH]c1=O", "value": "9 µM"}
{"compound": "Oc1cccc(-c2c3nc(c(-c4cccc(O)c4)c4ccc([nH]4)c(-c4cccc(O)c4)c4nc(c(-c5cccc(O)c5)c5ccc2[nH]5)C=C4)C=C3)c1", "value": "47 µM"}
{"compound": "Nc1nc2c(ncn2[C@H]2C=C[C@@H](CO)O2)c(=O)[nH]1", "value": ">100 µM"}
{"compound": "CO[C@H]1/C=C/O[C@@]2(C)Oc3c(C)c(O)c4c(O)c(c5c(c4c3C2=O)NC2(CCN(CC(C)C)CC2)N=5)=NC(=O)/C(C)=C\\C=C\\[C@H](C)[C@H](O)[C@@H](C)[C@@H](O)[C@@H](C)[C@H](OC(C)=O)[C@@H]1C", "value": ">120 µg/mL"}
{"compound": "Cc1cn([C@H]2C[C@H](F)[C@@H](CO)O2)c(=O)[nH]c1=O", "value": ">50 µM"}
{"compound": "N#CCn1ccc(=O)n(Cc2cc(Cl)cc(Cl)c2)c1=O", "value": "214 µM"}
{"compound": "CC1=CC(=O)c2c(O)ccc(-c3ccc(O)c4c3C(=O)C(C)=CC4=O)c2C1=O", "value": ">125 µg/mL"}
{"compound": "C[C@]1(CCP(=O)(O)O)CO[C@@H](n2cnc3c(=O)[nH]c(N)nc32)C1", "value": ">100 µM"}
{"compound": "CCCN(C)C(=O)Oc1nsnc1-c1c(Cl)cccc1Cl", "value": "148 µM"}
{"compound": "O=c1ccn([C@H]2CC[C@@H](CO)O2)c(=O)[nH]1", "value": ">100 µM"}
{"compound": "NC[C@H](Cl)[C@@H](O)c1csc(N)n1", "value": ">300 µM"}
{"compound": "O=C(O)[C@H]1O[C@@H](Oc2cc3oc(-c4ccccc4)cc(=O)c3c(O)c2O)[C@H](O)[C@@H](O)[C@@H]1O", "value": ">10 µg/mL"}
{"compound": "CN(C)c1cccc2c(S(=O)(=O)N3CCSC3c3cccnc3)cccc12", "value": "2080 µM"}
{"compound": "CCC[C@@]1(CCc2ccccc2)CC(O)=C([C@H](CC)c2cccc(NS(=O)(=O)c3ccc(C(F)(F)F)cn3)c2)C(=O)O1", "value": "30 µM"}
{"compound": "Cc1oncc1C(=O)Nc1ccc(C(F)(F)F)cc1", "value": ">100 µM"}
{"compound": "Nc1ncc([C@H]2CC[C@@H](CO)O2)c(=O)[nH]1", "value": ">100 µM"}
{"compound": "O=c1ccn([C@H]2C=C[C@@H](CO)O2)c(=O)[nH]1", "value": ">100 µM"}
{"compound": "Cc1cn([C@H]2C[C@H](N=[N+]=[N-])[C@@H](CO)O2)c(=O)[nH]c1=O", "value": ">3.076 µM"}
{"compound": "CCCc1cc(=O)oc2c3c(c4c(c12)OC(C)(C)C=C4)O[C@@H](C)[C@H](C)[C@@H]3O", "value": "10–20 µM"}
{"compound": "Cc1cn([C@H]2C[C@H](N=[N+]=[N-])[C@@H](CO)O2)c(=O)[nH]c1=O", "value": ">100 µM"}
{"compound": "O=c1[nH]cnc2c1ncn2[C@H]1CC[C@@H](CO)O1", "value": ">100 µM"}
{"compound": "Cc1cc(C)cc(Cn2c(=O)c(I)cn(Cc3ccccc3)c2=O)c1", "value": "201 µM"}
{"compound": "Cc1cn([C@H]2C=C[C@@H](CO)O2)c(=O)[nH]c1=O", "value": "28 µM"}
{"compound": "Oc1ccc(-c2c3nc(c(-c4ccc(O)cc4)c4ccc([nH]4)c(-c4ccc(O)cc4)c4nc(c(-c5ccc(O)cc5)c5ccc2[nH]5)C=C4)C=C3)cc1", "value": ">100 µM"}
{"compound": "Nc1ncnc2c1ncn2OCCOCP(=O)(O)O", "value": ">100 µM"}
{"compound": "CC(C)(C)c1cc(-c2c3nc(c(-c4cc(C(C)(C)C)c(O)c(C(C)(C)C)c4)c4ccc([nH]4)c(-c4cc(C(C)(C)C)c(O)c(C(C)(C)C)c4)c4nc(c(-c5cc(C(C)(C)C)c(O)c(C(C)(C)C)c5)c5ccc2[nH]5)C=C4)C=C3)cc(C(C)(C)C)c1O", "value": ">100 µM"}
{"compound": "Nc1c(S(=O)(=O)O)cc2c3c(cc(S(=O)(=O)O)cc13)C(=O)N(NC(=O)N/N=C\\c1ccc(-c3ccc(C=O)cc3)cc1)C2=O", "value": ">100 µM"}
{"compound": "Cc1cn([C@H]2C[C@H](N=[N+]=[N-])[C@@H](CO)O2)c(=O)[nH]c1=O", "value": ">0.37 µM"}
{"compound": "Nc1ccn([C@@H]2CS[C@H](CO)O2)c(=O)n1", "value": ">500 µM"}
{"compound": "NC(=O)NO", "value": "~500 µM"}
{"compound": "Nc1ncnc2c1ncn2[C@H]1C=C[C@@H](CO)O1", "value": ">100 µM"}
{"compound": "COc1cc(OC)cc(-c2c3nc(c(-c4cc(OC)cc(OC)c4)c4ccc([nH]4)c(-c4cc(OC)cc(OC)c4)c4nc(c(-c5cc(OC)cc(OC)c5)c5ccc2[nH]5)C=C4)C=C3)c1", "value": ">100 µM"}
{"compound": "CC12C(=O)c3cccc(O)c3C(=O)C1CC13OC12C(=O)c1c(O)cccc1C3=O", "value": ">125 µg/mL"}
{"compound": "Oc1c(I)cc(Cl)c2cccnc12", "value": "2 µM"}
{"compound": "Cc1ccc(-c2ccc3c(c2)C=C(C(=O)Nc2ccc(C[N+](C)(C)C4CCOCC4)cc2)CCC3)cc1", "value": ">20 µM"}
{"compound": "CC(C)CN(C[C@@H](O)[C@H](Cc1ccccc1)NC(=O)[C@H](CC(N)=O)NC(=O)c1ccc2ccccc2n1)C(=O)NC(C)(C)C", "value": ">100 µg/mL"}
{"compound": "CC(C)(C)NC(=O)[C@@H]1C[C@@H]2CCCC[C@@H]2CN1C[C@@H](O)[C@H](Cc1ccccc1)NC(=O)[C@H](CC(N)=O)NC(=O)c1ccc2ccccc2n1", "value": "78 µM"}
{"compound": "COC(=O)[C@H](C)NP(=O)(OC[C@H]1O[C@@H](n2cc(C)c(=O)[nH]c2=O)C[C@@H]1N=[N+]=[N-])Oc1ccc(Br)cc1", "value": ">100 µM"}
{"compound": "CC1=CC(=O)c2c(ccc(-c3ccc4c(c3O)C(=O)C=C(C)C4=O)c2O)C1=O", "value": ">125 µg/mL"}
{"compound": "Nc1c(S(=O)(=O)[O-])cc2c3c(cc(S(=O)(=O)[O-])cc13)C(=O)N(NC(=O)N/N=C\\c1cccc(C=O)c1)C2=O.[Na+].[Na+]", "value": ">100 µM"}
{"compound": "Cc1cn([C@H]2C[C@H](F)[C@@H](CP(=O)(O)O)O2)c(=S)[nH]c1=O", "value": ">200 µM"}
{"compound": "CC(=O)CCCCn1c(=O)c2c(ncn2C)n(C)c1=O", "value": ">>1000 µM"}
{"compound": "CC(=O)O[C@@H]1[C@H](OC(=O)CC(C)C)c2c(ccc3ccc(=O)oc23)OC1(C)C", "value": "4–20 µg/mL"}
{"compound": "CC[C@H](C)[C@H](NC(=O)[C@H](C(C)C)[C@@H](O)[C@H](O)[C@H](CC1CCCCC1)NC(=O)[C@H](Cc1cnc[nH]1)NC(=O)COc1cccc2ccccc12)C(=O)NCc1ccccn1", "value": ">100 µM"}
{"compound": "Cc1cn([C@H]2C[C@H](N=[N+]=[N-])[C@@H](CO)O2)c(=O)[nH]c1=O", "value": "100 µM"}
{"compound": "O=c1[nH]cnc2c1ncn2[C@H]1C=C[C@@H](CO)O1", "value": ">100 µM"}
{"compound": "O=C(/C=C(\\O)c1ncn[nH]1)c1ccc(Cc2ccc(F)cc2)o1", "value": "110 µM"}
{"compound": "Oc1ccc(CN2CCCNCCCNCCNCCC2)c2cccnc12", "value": ">10 µM"}
{"compound": "CNc1ncnc2c1ncn2[C@H]1C=C[C@@H](CO)O1", "value": ">100 µM"}
{"compound": "CCCc1cc(=O)oc2c3c(c4c(c12)OC(C)(C)C=C4)O[C@H](C)[C@@H](C)[C@@H]3O", "value": "10–20 µM"}
{"compound": "O=C(O)P(=O)(O)O", "value": ">640 µM"}
{"compound": "Cc1cn([C@H]2C[C@H](N=[N+]=[N-])[C@@H](CO)O2)c(=O)[nH]c1=O", "value": ">100 µM"}
{"compound": "C[C@@H]1CC[C@H]2[C@@H](C)CCO[C@@H]3OC4(C)CC[C@@H]1C32OO4", "value": ">100 µM"}

Lines come from different laboratories, so protocols vary. CCn: concentration that lowers growth or viability of the cells by n%.